Values from PubChem BioAssay AID1259414 (Drosophila RNAi Screening Center, 2018).
The deposit covers about 24,000 reagents; below is an unselected part of those with a known target gene and a result. In the full data, about 1,210 (5%) were called active. 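Inactive calls also include excluded dsRNAs with several or no targets, genes unexpressed in JW18, and well A1, regardless of score.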 Unmarked entries are inactive. A plus sign joins genes that one reagent is predicted to hit.

Test: 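Genome-wide screen for host control of endosymbiont load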 (primary screen)
System: Drosophila JW18 cells infected with Wolbachia
Knock-down reagent: long dsRNA against Drosophila genes, 0.25 µg dsRNA per well of a 384-well plate
Duration: 5 days
Conditions: cells persistently infected with Wolbachia before knock-down; no added drug
Read-out: 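Imaged fluorescence in situ signal for Wolbachia 23S rRNA per DAPI-counted host cell, given as a robust z-score within each plate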
Reading the numbers: Wolbachia per cell robust z: higher = more Wolbachia per host cell than the plate typical
Hit rule: 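Hit when robust z is 1.5 or more, or -1.5 or less, in at least two of three replicates; excludes dsRNAs with several or no targets, genes not expressed in JW18 and well A1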

gene,amplicon,"Wolbachia per cell robust z, rep 1","Wolbachia per cell robust z, rep 2","Wolbachia per cell robust z, rep 3"
pum (pumilio),DRSC12726,-0.494,-0.739,-1.38
pum (pumilio),DRSC17038,0.919,0.0761,-2.07
pum (pumilio),DRSC22758,-1.56,-0.631,-0.29
pum (pumilio),DRSC22794,-0.184,-0.205,0.173
pum (pumilio),DRSC23430,-0.0466,-7.12,-0.315
Tbh (Tyramine beta hydroxylase),DRSC18723,-1.15,0.93,-0.507
Tbh (Tyramine beta hydroxylase),DRSC26690,1.69,0.0476,-0.372
CG33723,DRSC37809,0.466,-0.87,1.65
CG9799,DRSC16567,-0.452,0.254,0.161
CG11168,DRSC14292,-0.214,-0.35,-1.06
MAPk-Ak2 (MAP kinase activated protein-kinase-2),DRSC18678,0.519,-0.162,0.556
MAPk-Ak2 (MAP kinase activated protein-kinase-2),DRSC29642,0.898,1.19,0.539
MAPk-Ak2 (MAP kinase activated protein-kinase-2),DRSC41556,-1.69,0.395,0.508
ovo,DRSC18050,3.83,0.413,0.596
ovo,DRSC25801,-0.543,1.85,-0.452
ovo,DRSC40794,0.011,-0.49,-1.23
CG9864,DRSC07346,-1.04,0.646,-0.0434
CG9864,DRSC28765,-0.15,0.331,0.246
Obp83g (Odorant-binding protein 83g),DRSC12269,-0.0711,-0.38,-0.15
Obp83g (Odorant-binding protein 83g),DRSC28322,1.13,0.307,0.178
Slc25A46b,DRSC02888,0.0252,0.195,-0.485
RhoGAP19D (Rho GTPase activating protein at 19D),DRSC20499,1.05,1.94,1.38
RhoGAP19D (Rho GTPase activating protein at 19D),DRSC20500,0.875,0.968,-5.34
rad50,DRSC04523,-0.145,0.142,0.326
Spc105R (Spc105-related),DRSC11663,3.33 (active),4.57,-0.699
Spc105R (Spc105-related),DRSC39104,4.81 (active),4.37,6.3
frj (farjavit),DRSC03250,-0.477,1.1,-2.31
Pfrx (6-phosphofructo-2-kinase),DRSC18856,0.85,1.04,1.15
Pfrx (6-phosphofructo-2-kinase),DRSC19315,-8.2,-0.519,-0.861
Pfrx (6-phosphofructo-2-kinase),DRSC28602,-0.592,0.821,-0.499
CG12917,DRSC06231,0.315,-0.255,-0.702
Osi18 (Osiris 18),DRSC12181,1.27,0.241,-0.588
CG18302,DRSC02663,-4.77,0.143,-1.6
CG18302,DRSC29318,-0.433,-7.03,1.36
tei (teiresias),DRSC07616,0.881,1.46,0.739
tei (teiresias),DRSC23756,-0.606,-0.109,-1.42
CG13252,DRSC11700,0.276,-0.516,0.39
CG13252,DRSC27577,0.835,-0.194,0.587
CG7530,DRSC16255,0.117,0.944,0.392
CG7530,DRSC25476,0.186,0.406,0.432
asRNA:CR43430 + hts,DRSC07629,-3.12,0.655,0.956
bnk (bottleneck),DRSC16912,0.225,-3.94,-0.786
bnk (bottleneck),DRSC29887,0.481,0.319,0.785
fws (four way stop),DRSC02969,0.331,-6.2,0.54
fws (four way stop),DRSC29678,-0.0287,0.348,0.324
ppk17 (pickpocket 17),DRSC02252,-0.408,-1.83,-0.0252
"Gorab (Golgin, RAB6 interacting)",DRSC10383,-0.943,-0.257,1.47
"Gorab (Golgin, RAB6 interacting)",DRSC29314,-0.862,0.408,-1.79
CG33771,DRSC11718,-0.0949,-0.108,0.608
SMC6 (Structural maintenance of chromosomes 6),DRSC15829,-0.278,-1.74,-1.09
SMC6 (Structural maintenance of chromosomes 6),DRSC25997,0.0617,0.792,-0.166
Cdc37 (Cell division cycle 37),DRSC08648,-0.238,-0.367,0.509
Cdc37 (Cell division cycle 37),DRSC27723,1.27,1.63,1.8
Cdc37 (Cell division cycle 37),DRSC41554,0.779,-0.058,-0.262
CG30274,DRSC04171,0.42,-1,-0.0703
CG30274,DRSC29207,0.342,0.714,-0.459
"Polr2K (RNA polymerase II, I and III subunit K)",DRSC38870,-0.461,0.789,0.918
CG7231,DRSC03034,-1.76,0.737,1.14
nord,DRSC04210,-3.62,-0.133,1.18
nord,DRSC04361,-1.22,0.735,0.0754
CG13564,DRSC04201,0.261,-0.611,0.156
CG31698,DRSC22226,-0.827,1,1.2
CG31698,DRSC28563,1.16,1.55,1.09
CG7295,DRSC00699,-0.625,1.34,1
Bhmt (Betaine-homocysteine S-methyltransferase),DRSC02079,-1.77 (active),-4.88,-0.744
Bhmt (Betaine-homocysteine S-methyltransferase),DRSC25655,-0.34,-0.165,-0.493
Pburs (Partner of Bursicon),DRSC02483,-0.789,0.23,-0.284
Pgant2 (Polypeptide N-Acetylgalactosaminyltransferase 2),DRSC00587,-0.715,-0.103,-0.699

In a second layout: results already given.
{"gene":"ovo","amplicon":"DRSC25801","Wolbachia per cell robust z, rep 1":-0.543,"Wolbachia per cell robust z, rep 2":1.85,"Wolbachia per cell robust z, rep 3":-0.452}
{"gene":"ovo","amplicon":"DRSC40794","Wolbachia per cell robust z, rep 1":0.011,"Wolbachia per cell robust z, rep 2":-0.49,"Wolbachia per cell robust z, rep 3":-1.23}
{"gene":"CG9864","amplicon":"DRSC07346","Wolbachia per cell robust z, rep 1":-1.04,"Wolbachia per cell robust z, rep 2":0.646,"Wolbachia per cell robust z, rep 3":-0.0434}
{"gene":"CG9864","amplicon":"DRSC28765","Wolbachia per cell robust z, rep 1":-0.15,"Wolbachia per cell robust z, rep 2":0.331,"Wolbachia per cell robust z, rep 3":0.246}
{"gene":"Obp83g (Odorant-binding protein 83g)","amplicon":"DRSC12269","Wolbachia per cell robust z, rep 1":-0.0711,"Wolbachia per cell robust z, rep 2":-0.38,"Wolbachia per cell robust z, rep 3":-0.15}
{"gene":"Obp83g (Odorant-binding protein 83g)","amplicon":"DRSC28322","Wolbachia per cell robust z, rep 1":1.13,"Wolbachia per cell robust z, rep 2":0.307,"Wolbachia per cell robust z, rep 3":0.178}
{"gene":"Slc25A46b","amplicon":"DRSC02888","Wolbachia per cell robust z, rep 1":0.0252,"Wolbachia per cell robust z, rep 2":0.195,"Wolbachia per cell robust z, rep 3":-0.485}
{"gene":"RhoGAP19D (Rho GTPase activating protein at 19D)","amplicon":"DRSC20499","Wolbachia per cell robust z, rep 1":1.05,"Wolbachia per cell robust z, rep 2":1.94,"Wolbachia per cell robust z, rep 3":1.38}
{"gene":"RhoGAP19D (Rho GTPase activating protein at 19D)","amplicon":"DRSC20500","Wolbachia per cell robust z, rep 1":0.875,"Wolbachia per cell robust z, rep 2":0.968,"Wolbachia per cell robust z, rep 3":-5.34}
